PubChem BioAssay AID504761 – Drosophila RNAi Screening Center, 2011
The screen tested about 22,000 reagents; this is a random part of those with a known target gene and a result. Of all reagents, 116 (0.52%) were called active. 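Calls depend on retest data that are not deposited; infection was ranked per plate without normalising between plates; the unit of the infection score is not given.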 The raw values are shown without normalisation. No sequences are given here. The record does not give: the amount of reagent, the time to read-out.

- Aim: 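Insect host genes that dengue virus relies on to spread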 (primary screen)
- Cells: D.Mel-2 cells from Drosophila
- Reagent: long dsRNA against Drosophila genes
- Challenge: infection with dengue virus type 2; dose and infection time not stated
- Read-out: 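Per well on two replicate plates, imaging gave the percent of cells positive for viral envelope protein, ranked by infection, and a nuclear count of cells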
- Scale: infection score: higher = more virus-infected cells; cell count: higher = more cells in the well
- Call rule: 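Very low infection ranking in both replicate wells (chance probability at most 0.065), then a retest showing infection dropped 1.5-fold or more at p below 0.05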
- Meaning of the calls: active = confirmed: knock-down lowers infection; inactive = not picked or not confirmed

target | amplicon | infection score, replicate 1 | infection score, replicate 2 | cell count, replicate 1 | cell count, replicate 2 | outcome
Den1 (GeneID 36339) | DRSC07195 | 23.3 | 19.2 | 3934 | 5918 | inactive
CG14835 (GeneID 38832) | DRSC10205 | 5.03 | 2.91 | 6306 | 6216 | inactive
CG40551 (retired record) (GeneID 5740872) | DRSC21229 | 9.14 | 11.8 | 6529 | 6799 | inactive
Gale (GeneID 38076) | DRSC08234 | 6.11 | 8.63 | 6335 | 6291 | inactive
ave (GeneID 246638) | DRSC05502 | 2.3 | 4.51 | 5688 | 5543 | inactive
ave (GeneID 246638) | DRSC28562 | – | 15.9 | 363 | 4560 | inactive
S (GeneID 33281) | DRSC24973 | 1.12 | 1.08 | 6432 | 6307 | inactive
hoka (GeneID 38588) | DRSC08313 | 5.34 | 1.99 | 6160 | 5969 | inactive
Lamtor4 (GeneID 38454) | DRSC08436 | 0.36 | 4.53 | 6678 | 5872 | inactive
alrm (GeneID 43074) | DRSC14436 | 1.83 | 10.2 | 6322 | 3454 | inactive
Ir94g (GeneID 42768) | DRSC15231 | 10.7 | 13.4 | 3898 | 6089 | inactive
Ir94g (GeneID 42768) | DRSC27794 | 4.43 | 8.15 | 6339 | 6653 | inactive
MrgBP (GeneID 35880) | DRSC06417 | 16.2 | 3.61 | 1272 | 1357 | inactive
MrgBP (GeneID 35880) | DRSC29948 | 19.1 | 11.9 | 6578 | 6741 | inactive
CG18210 (retired record) (GeneID 32469) | DRSC19795 | 2.54 | 7.45 | 6334 | 5971 | inactive
CG18210 (retired record) (GeneID 32469) | DRSC25333 | 1.59 | 1.62 | 6176 | 6098 | inactive
Gpxl (GeneID 37194) | DRSC06538 | 1.09 | 3.39 | 6157 | 6216 | inactive
didum (GeneID 35680) | DRSC07603 | 3.06 | 5.83 | 6823 | 6504 | inactive
SdhBL (GeneID 32887) | DRSC20039 | 7.57 | 8.98 | 5743 | 4902 | inactive
EMC10 (GeneID 40396) | DRSC11850 | 3.59 | 7.49 | 5854 | 6264 | inactive
Mcm6 (GeneID 31603) | DRSC18680 | 2.35 | 5.5 | 6431 | 6351 | inactive
Mcm6 (GeneID 31603) | DRSC25750 | 7.52 | 6.64 | 5836 | 5900 | inactive

2 of these entries, reformatted:
{"target": "ave (GeneID 246638)", "amplicon": "DRSC28562", "infection score, replicate 2": 15.9, "cell count, replicate 1": 363, "cell count, replicate 2": 4560, "outcome": "inactive"}
{"target": "S (GeneID 33281)", "amplicon": "DRSC24973", "infection score, replicate 1": 1.12, "infection score, replicate 2": 1.08, "cell count, replicate 1": 6432, "cell count, replicate 2": 6307, "outcome": "inactive"}

Continued:
target | amplicon | infection score, replicate 1 | infection score, replicate 2 | cell count, replicate 1 | cell count, replicate 2 | outcome
Dph5 (GeneID 42663) | DRSC16653 | 4.06 | 3.52 | 6900 | 6157 | inactive
Dph5 (GeneID 42663) | DRSC27824 | 8.21 | 12.9 | 6969 | 6586 | inactive
Eig71Ee (GeneID 39706) | DRSC11152 | 0.32 | 0.98 | 6013 | 6133 | inactive
Mpcp2 (GeneID 39587) | DRSC11226 | 1.85 | 4.05 | 6271 | 5557 | inactive
Nct (GeneID 42964) | DRSC16172 | 16.3 | 18.7 | 6367 | 6655 | inactive
Six4 (GeneID 40297) | DRSC11881 | 2.48 | 3.16 | 6645 | 6651 | inactive
Six4 (GeneID 40297) | DRSC29889 | 33.2 | 9.08 | 5952 | 5890 | inactive
mRF1 (GeneID 34720) | DRSC02880 | 8.05 | 5.31 | 6164 | 6383 | inactive
mRF1 (GeneID 34720) | DRSC29576 | 13.3 | 0.99 | 2616 | 507 | inactive
Efr (GeneID 31553) | DRSC18322 | 2.26 | 2.73 | 6272 | 6222 | inactive
Efr (GeneID 31553) | DRSC26945 | 12.3 | 5.6 | 6050 | 6338 | inactive
Jheh1 (GeneID 251984) | DRSC06529 | 4.15 | 5.86 | 6919 | 7047 | inactive
Jheh1 (GeneID 251984) | DRSC25526 | 4.57 | 4.41 | 6471 | 6616 | inactive
CG3558 (GeneID 48421) | DRSC00615 | 3.63 | 2.76 | 6312 | 6331 | inactive
CG3558 (GeneID 48421) | DRSC29745 | 1.67 | 4.17 | 6400 | 6402 | inactive
Dnz1 (GeneID 34503) | DRSC03317 | 21.5 | 6.62 | 5245 | 5925 | inactive
Dnz1 (GeneID 34503) | DRSC24926 | 1.32 | 4.25 | 6227 | 6519 | inactive
